## Percent effect of library compounds

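Phenotypic screen: M. tuberculosis growth, cholesterol and DPPC medium, 4 days; the read-out is not stated. Concentration: 50 µM. Higher reads as more growth inhibition (inferred: compounds with an IC50 in retests scored well above the rest). About 69,000 compounds were tested under these conditions; 0.54% (about 370) showed 50% or more at least once.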

Each number is a percent effect as filed.
The record does not define 0% and 100%; most values in the screen are far below 50% and negative numbers occur (in some assays of this library far below -100).
Many other results are left out here, so strong results are more common than in the screen.
Two or more numbers in one place are separate tests of the same structure; such repeats can differ widely.

For CCc1[nH]c2c(CNc3nccc(N)n3)cc(C)cc2c1C the result was 20.01%. With COc1ccccc1OCCn1c(C)c(C)oc1=O the screen gave 59.41%. With CC(C)C[C@H](N)c1nnc(SCC(N)=O)o1.Cl the screen gave -41.6%. Result for CO[C@H]1CCN(c2nnc(C)s2)C[C@@H]1Cc1cccc(C)c1.O=C(O)C(F)(F)F was 32.34%. CCS(=O)(=O)CCNC1CCN(c2nc3ccc(Cl)cc3s2)CC1 read 8.415%. CN1CCC(Cc2cc(Nc3ncccn3)ncn2)CC1 read 54.55%.

For Br.COc1ccc(OCCc2cc(C3CCN(CC(C)C)C3)n[nH]2)cc1 (stereo not given) the result was 10.48% & 23.16%. CCC1c2ccsc2CCN1C(=O)NCc1cc(C)on1 (stereo not given) read 0.4834%. O=C(Nc1nc(-c2ccccc2)ns1)N1CCN(C(=O)C2CC2)CC1 gave 11.67% & 6.813%. With CC(C)c1ocnc1C(=O)N1CC(=O)Nc2cccnc21 the screen gave -1.342%. With CC(C)N(CCNc1nc(C2CCCC2)nc2c1cnn2C)C(C)C the screen gave 71.17% & 44.75%. For CC(C)c1nc(C2CCCN(C(=O)c3ccc4c(c3)COC4)C2)no1 (stereo not given) the result was 2.362%.

Result for CCc1ccccc1NC(=O)CCc1cnn(C)c1 was -23.51%. For CNC(=O)CCCNc1cc(C)nc2cc(C)nn12 the result was -1.246%. With Cc1cc(C(=O)NCc2ccco2)nn1C the screen gave -10.13%. For COc1cc(OC)cc(-c2noc(CN)n2)c1 the result was -54.01%. For COc1cc(C(=O)NCCc2cccc(C)c2)on1 the result was 36.63%. Cc1ccc(N(C)CC(O)COCc2ccccc2)c(C)c1 (stereo not given) gave 13.99%.

With CCC(CO)NC(=O)Cc1ccc(NC(=O)CC2=CCCCC2)cc1 (stereo not given) the screen gave 12.39% & 56.26%. For COc1ccc(CN(C(=O)C2CCCO2)c2ccncc2)cc1 (stereo not given) the result was 6.537%. COc1ccc(S(=O)(=O)Nc2cnc(N(C)C)nc2)cc1 gave 25.9%. CS(=O)(=O)NCC1CCCN(c2ccc(C(F)(F)F)cn2)C1 (stereo not given) gave -23.85%. With Fc1ccc(COCC2CCN(Cc3ccccn3)CC2)cc1.O=C(O)C(=O)O the screen gave 13.53%. OCC(O)CSCc1cc(Cl)ccc1Cl (stereo not given) gave 18.24%.

COc1ccc([C@@H]2C[C@H](NC(C)=O)C[C@H](CCc3ccccc3)O2)cn1 gave 7.557% & 15.61%. Cc1cc(CNC(=O)COc2ccccc2F)c(C)o1 read 4.199%. Result for CN(CCc1cn[nH]c1)Cc1nc(Cc2cccc(F)c2)no1 was -7.694%. With CC(=O)N1CCCC(c2ccc(Br)cn2)C1 (stereo not given) the screen gave -15.61%. Cc1ccccc1-n1c(C)cc(=O)[nH]c1=O read -6.793%. Result for O=C(NCCSC1CCCC1)c1cnccn1 was -13.46%.

CN(C)CC(=O)N1CCC2(CCc3cc(-c4cccnc4)ccc32)CC1.O=C(O)C(F)(F)F.O=C(O)C(F)(F)F gave 29.85%. Result for COC1CCN(C(=O)Cn2ccc3ccccc32)CC1 was -19.81%. Result for NS(=O)(=O)CCN1CCN(c2ccccc2O)CC1 was -5.32% & -6.953%. With CCC(C#N)NC(=O)c1ccc(Oc2cccnc2)cc1 (stereo not given) the screen gave 6.678% & -12.03%. For CCS(=O)(=O)N1CCC(c2nnc(CN3CCCCC3)n2C)CC1 the result was -8.767%. CC(C)Oc1ncnc2c1CCN(Cc1ccco1)CC2.O=C(O)C(F)(F)F read -2.514%.

With CCN(CC)c1ccc(C(=O)NCC2(C(N)=O)CCOCC2)cn1 the screen gave -13%. CCCc1nc(N2CC[C@@H](c3ccc4ccccc4c3)[C@H](O)C2)no1 read -4.421%. c1csc(-c2nc(CNCCn3cccn3)cs2)c1 read -3.351%. For COc1ccc(-c2nc(C3(NC(=O)OC(C)(C)C)CCC3)no2)cn1 the result was 7.478%. Cc1cc2c(=O)n(CC(=O)N3CCn4cccc4C3C(C)C)cnc2s1 (stereo not given) read -7.561% & 3.43%. COCC(C)NS(=O)(=O)c1ccc(Br)cn1 (stereo not given) read -5.426%.

Result for CC(C)Oc1ccc(CNC(=O)c2cc(C(N)=O)cs2)cc1F was -5.584%. Result for CCCN1Cc2ccccc2NC(=O)C12CCNC2 (stereo not given) was -2.807%. For Cc1ccc(S(=O)(=O)N(C)Cc2cnccn2)cc1N(C)C the result was -9.847%. Cc1nnnn1-c1cc(NCc2cc(C#N)ccc2F)ccc1F read 3.626%. For CN(C)c1cc(C2CCCN(C(=O)c3noc4c3CCCC4)C2)ccn1 (stereo not given) the result was 61.23%. O=C(Nc1cccnn1)NC(CCCO)c1ccccc1 (stereo not given) gave 11.42%.

O=C(c1cncnc1)N1CCCC(c2nccs2)C1 (stereo not given) read -1.309% & 3.058%. For CC(C)CCC(C)NC(=O)Nc1ccccn1 (stereo not given) the result was 64.13%. CCc1ccc(CN(C)C(=O)c2ccc(CSc3nnc[nH]3)o2)nc1 gave -0.2548%. Result for O=C(c1ccc2c(c1)CCC2)N1CCN(c2ccc(Cl)cn2)CC1 was 4.905%. O=C(C1CC1)N1CCC2(CCN(Cc3cccc(F)c3)CC2)CC1.O=C(O)C(F)(F)F read -11.85%. Result for CCNC(=O)N1CCC2(C1)c1ccccc1S(=O)(=O)N2CCC(C)C (stereo not given) was 11.86%.

With CCN1CCC(CC(=O)NC[C@H]2CCc3ccccc3O2)CC1 the screen gave -0.1835%. For Fc1ccccc1OC1CCN(CCn2cc3ccccc3n2)CC1 the result was 53.36%. COC(=O)c1ccc(CN(C(C)C)C(C)C)o1.Cl read -7.586%. With Cc1nsc(C(=O)NCCCc2ccccc2)n1 the screen gave 48.79%.

For reference, 8 entries once more:

structure	percent effect
CNC(=O)CCCNc1cc(C)nc2cc(C)nn12	-1.246
Cc1ccc(N(C)CC(O)COCc2ccccc2)c(C)c1 (stereo not given)	13.99
CC(C)CCC(C)NC(=O)Nc1ccccn1 (stereo not given)	64.13
CS(=O)(=O)NCC1CCCN(c2ccc(C(F)(F)F)cn2)C1 (stereo not given)	-23.85
Fc1ccccc1OC1CCN(CCn2cc3ccccc3n2)CC1	53.36
O=C(Nc1cccnn1)NC(CCCO)c1ccccc1 (stereo not given)	11.42
CC(C)N(CCNc1nc(C2CCCC2)nc2c1cnn2C)C(C)C	71.17 & 44.75
Cc1ccc(S(=O)(=O)N(C)Cc2cnccn2)cc1N(C)C	-9.847

Data taken from ChEMBL document CHEMBL3988442, “University of Dundee, Small-Polar-MMV Screening Library” (2021).